Measured values from several laboratories, pooled; numbers as filed in NIAID ChemDB.

Shared fields: tests in culture; agent: HIV-1; read-out: fold resistance

Lines come from different laboratories, so protocols vary. Fold resistance: result on the changed form divided by that on wild type.

| SMILES | method | strain | changes | cell line | result |
|---|---|---|---|---|---|
| Cc1cn([C@H]2C[C@H](N=[N+]=[N-])[C@@H](CO)O2)c(=O)[nH]c1=O | luciferase | Recombinant | RT-V118I M184V | HeLa | 0.4 |
| CC(C)=CCOc1cc(NC(=S)c2ccoc2C)ccc1Cl | cytopathic effect | A-0 (RT-L100I) | RT-L100I | CEM | 3 |
| Cn1c2ccccc2c2c1cc(C#N)c(=O)n2-c1ccc([N+](=O)[O-])cc1 | luciferase | Recombinant | RT-M184V | HeLa | 3.9 |
| CCN[C@H]1CO[C@@H]2OCC[C@H](OC(=O)N[C@@H](Cc3ccccc3)[C@H](O)CN(CC(C)C)S(=O)(=O)c3ccc4nc(NC5CC5)sc4c3)[C@@H]21 | p24 / luminescence | NL4-3 | L10F M46I I54V V82A | MT-4 | 1.2 |
| Cc1ccnc2c1NC(=O)c1cccnc1N2C1CC1 | XTT | Calanolide A-resistant (RT T139I) | RT-T139I | CEM + CEM-SS | 1 |
| CC(C)Nc1cccnc1N1CCN(C(=O)c2cc3cc(NS(C)(=O)=O)ccc3[nH]2)CC1 | cytopathic effect | B-1 (RT L100V K103R/K Y188H) | RT-L100V K103R/K Y188H | CEM | 100 |
| Cc1occc1C(=S)Nc1ccc(Cl)c(/C=N/OC(C)(C)C)c1 | XTT | Calanolide A-resistant (RT T139I) | RT-T139I | CEM + CEM-SS | 3 |
| Cc1cc(S(N)(=O)=O)ccc1NC(=O)COc1ccc(Cl)cc1C(=O)c1cc(Cl)cc(C#N)c1 | β-galactosidase | NNRTI-resistant (RT K101E) | RT-K101E | MAGI | 1.85 |
| C[C@H](Cn1cnc2c(N)ncnc21)OCP(=O)(O)O | luciferase | Recombinant | RT-M41L A62V S68N G112S M184V | HeLa | 0.5 |
| CC(C)CN(C[C@@H](O)[C@H](Cc1ccccc1)NC(=O)O[C@H]1CCO[C@H]2OCC[C@H]21)S(=O)(=O)c1ccc2nc(NC3CC3)sc2c1 | p24 / luminescence | NL4-3 | L10F M46I I54V V82A | MT-4 | 87 |
| Cc1cn([C@H]2C[C@H](N=[N+]=[N-])[C@@H](CO)O2)c(=O)[nH]c1=O | p24 / ELISA | IIIB | K112M K113E V128I M200I H219P | MT-2 | 0.6 |
| CN[C@H]1CO[C@@H]2OCC[C@H](OC(=O)N[C@@H](Cc3ccccc3)[C@H](O)CN(CC(C)C)S(=O)(=O)c3ccc4nc(NC5CC5)sc4c3)[C@@H]21 | p24 / luminescence | NL4-3 | L10F L33I M36I M46I I54V K55R I62V L63P A71V G73S V82T | MT-4 | 0.7 |
| Cc1ccc(S(=O)(=O)N(CC(C)C)C[C@@H](O)[C@H](Cc2ccccc2)NC(=O)O[C@H]2CO[C@H]3OCC[C@H]32)cc1 | p24 / ELISA | IIIB | K112M K113E V128I | MT-2 | 2.2 |
| COc1ccc(S(=O)(=O)N(CC(C)C)C[C@@H](O)[C@H](Cc2ccccc2)NC(=O)O[C@H]2CCO[C@H]3OCC[C@H]32)cc1 | p24 / luminescence | NL4-3 | L10I I54V K20R L24I V32I L33F M36I M46I I54M L63P K70Q V82I I84V L89M | MT-4 | >227 |
| O=c1[nH]cnc2c1ncn2[C@H]1CC[C@@H](CO)O1 | plaque count | HXB2 | RT-M41L Y181C T215Y | HT4 + HT4 LacZ-1 | 0.429 |
| CCN(c1nc(F)ccc1NC(C)(C)C)C1CCN(C(=O)c2cc3cc(NC(=O)N4CCN(C)CC4)ccc3[nH]2)CC1 | p24 / ELISA | IIIB | K112M K113E V128I M200I H219P I401T R409K D437N L441P | MT-2 | 2.6 |
| CC(=O)c1ccc(C)cc1NC(C(N)=O)c1c(Cl)cccc1Cl | MTT | IIIB | RT-V108I | MAGI | 31.1 |
| Cc1cn([C@H]2C[C@H](N=[N+]=[N-])[C@@H](CO)O2)c(=O)[nH]c1=O | XTT | Oxathiin carboxanilide-resistant RT L100I | RT-L100I | CEM + CEM-SS | 0.8 |
| Nc1ccn([C@H]2CC[C@@H](CO)O2)c(=O)n1 | plaque count | JF138M1 (RT M41L D67N T69D L210W T215Y) Chimeric clone | RT-M41L D67N T69D L210W T215Y | HELA-CD4+ | 3.66 |
| CCOCn1c(Cc2ccccc2)c(C(C)C)c(=O)[nH]c1=O | cytopathic effect | C-1 (RT-K101E) | RT-K101E | CEM | 3 |
| CN[C@H]1CO[C@@H]2OCC[C@H](OC(=O)N[C@@H](Cc3cccc(OC)c3)[C@H](O)CN(CC(C)C)S(=O)(=O)c3ccc4nc(NC(C)C)sc4c3)[C@@H]21 | p24 / luminescence | NL4-3 | L10I I15V K20R L24I V32I M36I M46I I54V I62V L63P K70Q V82A L88M | MT-4 | 0.1 |